Measurements reported in article PMC4140803 (PLoS ONE, 2014).

Test system: HIV-1LAI-M184V
Assay: microbe, parasite or virus in culture
Format: cell-based
Conditions: for EC50: Human immunodeficiency virus 1, C8166, HIV-1LAI-M184V; for FC, fold change, the ratio of EC50(Mut)/EC50(WT): HIV-1LAI-M184V vs wild type HIV-1IIIB

SMILES | EC50 [nM] | FC, fold change, the ratio of EC50(Mut)/EC50(WT)
Nc1ccn([C@@H]2CS[C@H](CO)O2)c(=O)n1 [3TC, lamivudine, reference compound] | > 800000 | 
Cc1cn([C@H]2C[C@H](N=[N+]=[N-])[C@@H](CO)O2)c(=O)[nH]c1=O [AZT, zidovudine] |  | 0.87
[N-]=[N+]=N[C@]1(CO)O[C@@H](n2ccc(N)nc2=O)[C@@H](F)[C@@H]1O [FNC, 2′-deoxy-2′-β-fluoro-4′-azidocytidine] | 27.4 ± 2.85 | 250
